Values quoted from earlier work in patent publication US20060106070A1, “Novel pyridine-based metal chelators as antiviral agents” (Bioflexis, LLC, priority 2004, published 2006).

How the values were obtained:
HIV-1 integrase [1] = target: T1, HIV-1 integrase (Human immunodeficiency virus type 1 group M subtype B, UniProt P12497); conditions: result in words
HIV-1 integrase [2] = target: T1, HIV-1 integrase; conditions: result in words; remark: listed apart in the source
HIV-1 integrase [3] = target: HIV-1 integrase (Human immunodeficiency virus type 1 group M subtype B, UniProt P04585); conditions: in vitro enzyme inhibition assay
HIV = conditions: ex-vivo viral inhibition assay

O=C(O)C(=O)CC(=O)c1cc2cc(Cl)ccc2[nH]1
inhibition of strand transfer reaction (HIV-1 integrase [1]): inhibit both reactions | inhibition of 3′ processing (HIV-1 integrase [2]): inhibit both reactions | IC50 (HIV-1 integrase [3]): 20 nM | EC50 (HIV): 700 nM
